From patent publication US20240066051A1, “NASAL SPRAY USING PENTOSAN POLYSULFATE AND MUCOPOLYSACCHARIDE POLYSULFATE FOR COVID-19 PREVENTION AND TREATMENT” (priority 2022, published 2024)

Target: T1, S-protein RBD (WT) (Severe acute respiratory syndrome coronavirus 2, UniProt P0DTC2)
T1 construct: made in house; host or cells: Expi293F cells
Set-up: species or system SARS-CoV-2
Conditions: read-out: IC50 against the S-protein RBD binding to immobilized heparin

**Q.** For pentosan polysulfate [PPS], which IC50 is on record?
**A.** ~35 nM
